The source of these data is paper PMC10404741.

The assay deals with ConC glycan-base trimer (N28-JCBv3-660-665 on the stabilised consensus clade C trimer with DS) (HIV-1 (consensus clade C)). Put plainly: SPR. The following applies: domain or fragment.

In general, Kd refers to the constant that tells how readily two partners part at equilibrium. Read a high Kd as weaker binding.

As to “soluble construct of CD4 containing the first two domains (sCD4)”, the Kd was found to be 72 nM.
